Pooled drug test results. Numbers come from NIAID ChemDB, via PubChem.

All rows: toxicity to cultured cells; cell line: MT-2; read-out: CC50

Blank or dashed fields: not listed here. CCn is the concentration with n% toxicity to the cells. Neighbouring rows are from separate reports.

SMILES,read by,result
CCOC(=O)Nc1[nH]c2cc(Cl)cc(Cl)c2c1C(=O)C(F)(F)F,ATP,67.5 µM
Cc1c(CCO)c(C(F)(F)F)nn1CC(=O)N[C@@H](Cc1ccccc1)C(=O)N(C)c1ccc2c(c1)OCO2,ATP,>20 µM
CCCCCCCC/C=C\CCCCCCCOCCCOP(=O)(O)CO[C@H](CO)Cn1cnc2c(N)ncnc21,propidium iodide,7 µM
Cc1nc2sc3c(c2c(-c2ccccc2O)c1C(OC(C)(C)C)C(=O)O)CCCC3,-,>20 µM
COc1ccc(Cc2n[nH]c(=O)c3ccccc23)cc1,propidium iodide,>188 µM
CCN(C(=O)[C@H](Cc1cc(F)cc(F)c1)NC(=O)CN1c2ccccc2N(CC(=O)N[C@@H](Cc2cc(F)cc(F)c2)C(=O)N(CC)c2ccc(NC(=O)OC)cc2)S1(=O)=O)c1ccc(NC(=O)OC)cc1,XTT,100 µM
COC(=O)[C@H](CCCCNC(=O)c1cc(O)c(O)c(O)c1)NC(=O)c1cc(O)c(O)c(O)c1,neutral red,>29 µM
Cc1nc2sc3c(c2c(-c2ccc(C(F)(F)F)cc2)c1[C@H](OC(C)(C)C)C(=O)O)CCCC3,-,>20 µM
CCc1c(CC(=O)N[C@@H](Cc2ccccc2)C(=O)N(C)c2ccc3c(c2)OCO3)c(C)nn1CCO,ATP,>20 µM
Cc1nc2sc3c(c2c(-c2ccc4[nH]ncc4c2)c1C(OC(C)(C)C)C(=O)O)CCCC3,-,>20 µM
COc1ccc(/C=C/C2NCCc3cc(OCc4ccccc4)c(OC)cc32)c(C)c1,fluorescence,9.7 µM
CC(c1nnc(Nc2ccc(C#N)cc2)o1)c1c(F)cccc1F,MTT,8.5 µM
O=C(/C=C/c1cc(O)c(O)c(O)c1)NCC(NC(=O)/C=C/c1cc(O)c(O)c(O)c1)C(=O)O,neutral red,>30 µM
[N-]=[N+]=NC[C@H]1O[C@@H](n2cnc3c(NC(=O)Nc4ccccc4)ncnc32)[C@@H]2OC(=O)C[C@@H]21,neutral red,21.9 µM
C=CCC(O)(c1c(NC(=O)OCC)[nH]c2cccc(Br)c12)C(F)(F)F,ATP,54.3 µM
Cc1ccc2c(c1)[C@@H](N1CCCC1=O)C[C@@H](c1cccc([N+](=O)[O-])c1)N2,MTT,>50 µM
CCCCCCCCCCCCCCCCOCCCOP(=O)(O)CO[C@H](CO)Cn1cnc2c(N)ncnc21,propidium iodide,1 µM
Cc1cc(Nc2nnc(Cc3c(Cl)cccc3Cl)o2)ccc1Cl,MTT,>100 µM
O=C1O/C(=C\c2ccc(Cl)c(Cl)c2)c2cc(Cl)c(Cl)cc21,propidium iodide,>139 µM
O=[N+]([O-])c1cccc(-c2ccc3ccccc3n2)c1,MTT,136 µM
CCn1c(C2CC2)nc(CC(=O)N[C@@H](Cc2ccccc2)C(=O)N(C)c2ccc3c(c2)OCO3)c1C,ATP,>20 µM
CCOC(=O)Nc1[nH]c2cc(Cl)cc(Cl)c2c1C(O)(C(C)C)C(F)(F)F,ATP,28.3 µM
CN(C(=O)[C@H](Cc1cc(F)cc(F)c1)NC(=O)NS(=O)(=O)N[C@@H](Cc1cc(F)cc(F)c1)C(=O)N(C)c1ccc(=O)n(C)c1)c1ccc(=O)n(C)c1,XTT,100 µM
CCOC(=O)C[C@H]1[C@@H](O[Si](C)(C)C(C)(C)C)[C@H](n2cnc3c(NC(=O)Nc4ccccc4)ncnc32)O[C@@H]1CNC(=O)NC,neutral red,37.8 µM
COc1ccc(N(C)C(=O)C(Cc2ccccc2)NS(=O)(=O)CS(=O)(=O)N[C@@H](Cc2ccccc2)C(=O)N(C)c2ccc(OC)cc2)cc1,XTT,100 µM
Cc1ccc2c(=O)[nH]nc(Cc3ccc(Cl)cc3Cl)c2c1,propidium iodide,79.4 µM
CCOC(=O)Cc1c(C(C)C)nn(CC(=O)N[C@@H](Cc2ccccc2)C(=O)N(C)c2ccc3c(c2)OCO3)c1C,ATP,>20 µM
O=C(/C=C/c1ccc(O)c(O)c1)NCCCC[C@H](NC(=O)/C=C/c1ccc(O)c(O)c1)C(=O)O,neutral red,>51 µM
CCOC(=O)Nc1[nH]c2cccc(Cl)c2c1C(C)(O)C(F)(F)F,ATP,20.5 µM
N#Cc1ccc(Nc2ncc(Cc3c(Cl)cccc3Cl)s2)cc1,MTT,>100 µM
Cc1cc(N(C)C(=O)[C@H](Cc2cc(F)cc(F)c2)NC(=O)NS(=O)(=O)N[C@@H](Cc2cc(F)cc(F)c2)C(=O)N(C)c2cnc(C)c(C)c2)cnc1C,XTT,100 µM
CNC(=O)NC[C@H]1O[C@@H](n2cnc3c(NC(=O)Nc4ccccc4)ncnc32)[C@@H]2OC(=O)C[C@@H]21,neutral red,58.5 µM
Cc1ccc(-c2c(C(OC(C)(C)C)C(=O)O)c(C)nc3sc4c(c23)CCOC4)cc1,-,>20 µM
Cc1c(CC(=O)O)c(C(C)C)nn1CC(=O)N[C@@H](Cc1ccccc1)C(=O)N(C)c1ccc2c(c1)OCO2,ATP,>20 µM
Clc1cccc(Cl)c1Cc1cnc(Nc2c(Cl)cccc2Cl)s1,MTT,63 µM
COc1cc(OC)c2ccc(-c3cccc([N+](=O)[O-])c3)nc2c1,ATP,>161 µM
N#Cc1cccc(Nc2nnc(Cc3c(Cl)cccc3Cl)o2)c1,MTT,46 µM
Cc1c(CCO)c(C2CC2)nn1CC(=O)N[C@@H](Cc1ccccc1)C(=O)N(C)c1ccc2c(c1)OC(F)(F)O2,ATP,>20 µM
O=C1O/C(=C\c2ccc(Cl)c(Cl)c2)c2c1cccc2[N+](=O)[O-],propidium iodide,<18.6 µM
Fc1ccc(Nc2ncc(Cc3c(Cl)cccc3Cl)o2)cc1,MTT,12 µM
Cc1ccc2c(c1)[C@@H](N1CCCC1=O)C[C@@H](c1cccc(N)c1)N2,MTT,>50 µM
COc1ccc(N(C)C(=O)[C@H](Cc2ccccc2)NC(=O)C(C)(C)C(=O)N[C@@H](Cc2ccccc2)C(=O)N(C)c2ccc(OC)cc2)cc1,XTT,100 µM
Cc1cc2nc(-c3cccc([N+](=O)[O-])c3)ccc2c(C)c1C,ATP,>189 µM
CN(C(=O)[C@H](Cc1cc(F)cc(F)c1)NC(=O)CN1c2ccccc2N(CC(=O)N[C@@H](Cc2cc(F)cc(F)c2)C(=O)N(C)c2ccc3scnc3c2)S1(=O)=O)c1ccc2scnc2c1,XTT,100 µM
O=C(/C=C/c1ccc(O)c(O)c1)NCCCC(NC(=O)/C=C/c1ccc(O)c(O)c1)C(=O)O,neutral red,>38 µM
Cc1cc(C)c2c(c1)N[C@H](c1cccc([N+](=O)[O-])c1)C[C@@H]2N1CCCC1=O,ATP,>137 µM
Cc1ccc(S(=O)(=O)NC(=O)Cc2c(C)nn(CC(=O)N[C@@H](Cc3ccccc3)C(=O)N(C)c3ccc4c(c3)OCO4)c2C(C)C)cc1,ATP,>20 µM
COC(=O)C(CCCCNC(=O)c1ccc(O)c(O)c1)NC(=O)c1ccc(O)c(O)c1,neutral red,>70 µM
COc1cc(Cc2nn(C)c(=O)c3ccccc23)cc(OC)c1OC,propidium iodide,>147 µM
Nc1cccc([C@@H]2C[C@H](N3CCCC3=O)c3cc(I)ccc3N2)c1,MTT,>50 µM
Cc1c(CCO)c(C2CC2)nn1CC(=O)N[C@@H](Cc1ccccc1)C(=O)N(C)c1ccc2c(c1)OCO2,ATP,>20 µM
OC1(Cc2ccccc2Cl)c2cc(Cl)c(Cl)cc2C2=NCCN21,propidium iodide,30.1 µM
CCOC(C(=O)O)c1c(C)nc2sc3c(c2c1-c1ccccc1O)CCCC3,-,>20 µM
COc1ccc2nc(-c3cccc(N)c3)ccc2c1,MTT,107.6 µM
CCOC(=O)Nc1[nH]c2cc([N+](=O)[O-])ccc2c1C(=O)C(F)(F)F,ATP,>200 µM
O=C1CCCN1[C@H]1C[C@@H](c2cccc([N+](=O)[O-])c2)Nc2ccc(I)cc21,ATP,60.85 µM
C=CCC(O)(c1c(NC(=O)OCC)[nH]c2cc(Cl)cc(Cl)c12)C(F)(F)F,ATP,>200 µM

For reference, 7 entries again:

SMILES	read by	result
O=C(/C=C/c1ccc(O)c(O)c1)NCCCC(NC(=O)/C=C/c1ccc(O)c(O)c1)C(=O)O	neutral red	>38 µM
CCOC(C(=O)O)c1c(C)nc2sc3c(c2c1-c1ccccc1O)CCCC3	-	>20 µM
O=C(/C=C/c1ccc(O)c(O)c1)NCCCC[C@H](NC(=O)/C=C/c1ccc(O)c(O)c1)C(=O)O	neutral red	>51 µM
Fc1ccc(Nc2ncc(Cc3c(Cl)cccc3Cl)o2)cc1	MTT	12 µM
Cc1c(CCO)c(C2CC2)nn1CC(=O)N[C@@H](Cc1ccccc1)C(=O)N(C)c1ccc2c(c1)OCO2	ATP	>20 µM
N#Cc1ccc(Nc2ncc(Cc3c(Cl)cccc3Cl)s2)cc1	MTT	>100 µM
Cc1ccc2c(c1)[C@@H](N1CCCC1=O)C[C@@H](c1cccc(N)c1)N2	MTT	>50 µM